Molecular target: MKA-RSL (Ralstonia solanacearum lectin with N-terminal Met-Lys-Ala extension) (Ralstonia solanacearum)
Assay: crystal structure

## MKA-RSL (Ralstonia solanacearum lectin with N-terminal Met-Lys-Ala extension) (natural protein)
  stoichiometry N: 3

Reference: paper PMC11883740, “N-Terminal Protein Binding and Disorder-to-Order Transition by a Synthetic Receptor” (2025)
